Experimental data from paper PMC9061996, “Targeting the N-Terminus Domain of the Coronavirus Nucleocapsid Protein Induces Abnormal Oligomerization via Allosteric Modulation” (2022).

Biological target: MERS-CoV N-NTD (Betacoronavirus England 1, UniProt K9N4V7)
Assay: X-ray crystallography
Settings: co-crystals, 2 mM ligand, pH 5.5, 20 °C; predicted allosteric Site 1

| Structure (SMILES) | X-ray crystallography |
| --- | --- |
| FCCOc1ccc2[nH]ccc2c1 | 6LZ6 (N:P4-3 complex) |
| COCCOc1ccc2[nH]ccc2c1 | 6LZ8 (N:P4-4 complex) |
